{"source": "patent US20080181906A1", "about": "“Polyvalent Immunogen” (priority 2003, published 2008)", "key": {"[1]": {"tested_on": "HIV primary isolates", "assay": "Neutralization of 19 HIV primary isolates by monovalent guinea pig sera (single infection cycle neutralization assay or fusion inhibition assay)", "format": "cell-based, HIV-1"}, "[2]": {"tested_on": "human PB lymphocytes and monocytes", "assay": "Peptide membrane binding assay", "conditions": "compared with the peptide without E9V; FIG. 3"}}}
{"substance": "KQIINMWQVVGKAMYA-RPNNNTRKSIHIGPGRAFYATE", "values": [{"measurement": "HIV primary isolates neutralized of those tested", "setting": "[1]; also when criteria increased to greater than 80% neutralization vs. 50% neutralization", "value": "19/19"}, {"measurement": "primary isolates neutralized out of 19 primary isolates tested", "setting": "[1]; monovalent serum from individual guinea pigs immunized with each peptide, listed as 62.19", "value": "19 of 19"}]}
{"substance": "KQIINMWQVVGKAMYA-TRPNNNTRRRLSIGPGRAFYARR", "values": [{"measurement": "binding of peptide to human PB lymphocytes and monocytes", "setting": "[2]", "value": "bound better"}]}
